# The list shows a part of the results, in another mix than the full data. The source made the active and inactive calls. Cut-off read from the data, not from the text of the source: active = inhibition above about 30%; inactive = the rest.
# Test system: CCHF virus ovarian tumor domain protease (vOTU, L protein)
# Experiment: CCHFV vOTU protease inhibitors, confirmation, biochemical, Pep-AMC substrate, fluorescence (AID 686976)
# Conditions: Recombinant CCHFV vOTU, at 11.5 µM, active compounds read high
row,Compound,inhibition
1,Nc1cccc2c([As](=O)(O)O)cccc12,active: 72.1%
2,Nc1cccc2ccc([As](=O)(O)O)cc12,inactive: 16.7%
